Data published in doi:10.1101/2020.02.05.936021.
Numbering of substitutions follows the chain as printed. For at least one entry, the source does not settle the construct or the ends of the probe. At least one verdict was read from the data and is not stated in words by the source. Protein sequences can lack the tags named with them.

How the values were obtained:
hA3C-GST (Homo sapiens) = molecular target: T1, hA3C-GST (Homo sapiens) (UniProt Q9NRW3); assay: competition with a labelled probe; settings: 500-fold excess over probe, 8 nM protein, disrupted the complex
T1 sequence (looked up, limits assumed): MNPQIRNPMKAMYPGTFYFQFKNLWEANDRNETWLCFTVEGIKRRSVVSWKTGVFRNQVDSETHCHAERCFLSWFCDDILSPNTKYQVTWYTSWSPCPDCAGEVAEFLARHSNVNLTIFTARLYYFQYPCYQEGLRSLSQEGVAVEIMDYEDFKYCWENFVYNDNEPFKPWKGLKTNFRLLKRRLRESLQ

[1] = molecular target: T2, hA3C.WE-RK-GST W25R,E26K (Homo sapiens) (UniProt Q9NRW3); assay: competition with a labelled probe; settings: 500-fold excess over probe, 8 nM protein, disrupted the complex
T2 sequence (looked up, limits assumed): T1 sequence (looked up, limits assumed) with W25R, E26K

GGATTGGTTGGTTATTTGTATAAGGAAGGTGGATTGAAGGTTCAAGAAGGTGATGGAAGTTATGTTTGGTAGATTGATGG [unlabeled 80-nt TTCA deamination substrate (competitor)]
binding result (hA3C-GST (Homo sapiens)): binds | binding result [1]: binds
